Test system: potato tubers
Settings: Trans-2-decenal 0.20 ml/kg alone or with PG; PG only […]; vapor; N = 5

Structure (SMILES) | 48 h Post Treatment No. of Lesions | 96 h Post Treatment No. of Lesions | TOTAL No. of Lesions (5 tubers)
CCCCCCC/C=C/C=O [Trans-2-decenal (T2D), Trans-2-Decenal] | 11 | 12 | 23
CC(O)CO (stereo not drawn) [PG, propylene glycol] | 2 | 2 | 4
